Biological target: purified recombinant GRP78 protein (GRP78-His) (human, NT-647 fluorescent label (in the MST only))
Test: MST

B1: GST-preS1 truncated protein preS1-p1 ([…]) (domain or fragment)
chain: not shown
- Kd: 899 nM
